Measured values from several laboratories, pooled; numbers as filed in NIAID ChemDB.

All rows: growth or infection tests; species: Herpes simplex virus 2; cells: HEL; read by: cytopathic effect; measure: EC50

Conditions beyond the fields shown may differ between rows. ECn: concentration that inhibits the pathogen or its effect by n%.

SMILES	strain or isolate	value
CCCCCCCC/C=C/CCCCCCCC(=O)OCC(CO)OCn1cnc2c(=O)[nH]c(N)nc21	G	0.0012 µM
O=c1c2ncn(COCCO)c2nc2[nH]c(-c3ccc(F)cc3)cn12	G	>16 µg/mL
O=c1[nH]c(=O)n([C@H]2C[C@H](O)[C@@H](CO)O2)cc1/C=C/Br	G	183 µM
CC(=O)Nn1c(-c2cn(-c3ccccc3)nc2-c2ccccc2)n[nH]c1=S	G	>80 µg/mL
C/C(=N/Nc1nc(-c2ccc(Cl)cc2)cs1)c1ccc(NC(=O)CN2C(=O)c3ccccc3S2(=O)=O)cc1	G	>20 µM
Cc1c(-c2ccc(F)cc2)[nH]c2nc3c(ncn3COCCO)c(=O)n12	G	1.92 µg/mL
C/C(=N/Nc1nc(-c2ccccc2)cs1)c1ccc(NC(=O)CN2C(=O)c3ccccc3S2(=O)=O)cc1	G	20 µM
Nn1c(-c2cn(-c3ccccc3)nc2-c2ccccc2)n[nH]c1=S	G	>80 µg/mL
Nc1nc2c(ncn2COC(CO)CO)c(=O)[nH]1	G	0.016 µM
O=C(Nn1c(-c2cn(-c3ccccc3)nc2-c2ccccc2)n[nH]c1=S)c1ccccc1	G	>16 µg/mL
O=c1c2ncn(COCCO)c2nc2[nH]c(-c3ccccc3)c(Cc3ccccc3)n12	G	>16 µg/mL
C/C(=N/Nc1nc(-c2ccc(C)cc2)cs1)c1ccc(NC(=O)CN2C(=O)c3ccccc3S2(=O)=O)cc1	G	20 µM
O=c1c2ncn(COC(CO)CO)c2nc2[nH]c(-c3ccc(C(F)(F)F)cc3)cn12	G	9.6 µg/mL
Nc1ccn(C[C@@H](CO)OCP(=O)(O)O)c(=O)n1	HS-44 (TK-)	0.97 µM
S=c1[nH]nc(-c2cn(-c3ccccc3)nc2-c2ccccc2)o1	G	>16 µg/mL

Repeating the final 2 entries:

SMILES,strain or isolate,value
Nc1ccn(C[C@@H](CO)OCP(=O)(O)O)c(=O)n1,HS-44 (TK-),0.97 µM
S=c1[nH]nc(-c2cn(-c3ccccc3)nc2-c2ccccc2)o1,G,>16 µg/mL